Pooled drug test results. Numbers come from NIAID ChemDB, via PubChem.

Common to all: whole-cell or culture tests; organism: Influenza A virus; endpoint: EC50

ECn is the concentration giving n% inhibition of infection, replication or growth. An empty or dashed field is not shown. Neighbouring rows are from separate reports.

| compound | strain or isolate | cell line | value |
|---|---|---|---|
| C#C[C@@H](O)C1=C[C@@H](n2cnc3c(N)ncnc32)[C@H](O)[C@@H]1O | H2N2 X31 | MDCK | >50 µg/mL |
| C1Cc2noc(C34CC5CC(CC(C5)C3)C4)c2C1 | H7N1 A/Rostock/34 | Chick embryo fibroblasts | 145 µg/mL |
| CCCN(CCc1ccccc1OC)C(=O)[C@@H]1OC(C(=O)O)=C[C@H](N)[C@H]1NC(C)=O | A/Singapore/1/57 |  | 0.00004 µg/mL |
| CC(=O)N[C@H]1[C@H]([C@H](O)[C@H](O)CO)OC(C(=O)O)=C[C@@H]1N=C(N)N | H5N1 A/gull/PA/4175/83 | MDCK | 0.22 µM |
| CC(=O)N[C@@H]1[C@@H](N)C=C(C(=O)O)O[C@H]1C(=O)N(CCc1ccccc1)CC(=O)O | A/Singapore/1/57 |  | 0.95 µg/mL |
| C=C[C@H](O)C1=C[C@@H](n2cnc3c(N)ncnc32)[C@H](O)[C@@H]1O | H2N2 X31 | MDCK | >250 µg/mL |
| CCOC(=O)C1=C[C@@H](OC(CC)CC)[C@H](NC(C)=O)[C@@H](N)C1 | H5N1 A/Vietnam/1194/04 | MDCK | 22.35 µM |
| Clc1nc(CC23CC4CC(CC(C4)C2)C3)cs1 | H7N1 A/Rostock/34 | Chick embryo fibroblasts | 21.09 µg/mL |
| [N-]=C=Nc1nncs1 | H7N7 A/Gendon | MDCK | <10 µg/mL |
| CCCN(CCc1ccc(Cl)cc1Cl)C(=O)[C@@H]1OC(C(=O)O)=C[C@H](N)[C@H]1NC(C)=O | A/Singapore/1/57 |  | 0.00001 µg/mL |
| CC(N)C12CC3CC(CC(C3)C1)C2 | A/Rostock | CEF | <0.1 µM |
| CCCC(CCC)C(NC(C)=O)C1C(N=C(N)N)CC(C(=O)O)C1O | H5N1 A/duck/MN/1525/81 | MDCK | 0.02 µM |
| CCC(CC)[C@H](NC(C)=O)[C@@H]1[C@H](O)[C@@H](C(=O)O)C[C@H]1N=C(N)N | H3N2 TOKYO/3/67 | MDCK | 0.0055 µM |
| C=C[C@@H](O)C1=C[C@@H](n2cnc3c(N)ncnc32)[C@H](O)[C@@H]1O | H2N2 JAPAN 57 | MDCK | >50 µg/mL |
| CCCN(CCc1cccc(-c2ccccc2)c1)C(=O)[C@@H]1OC(C(=O)O)=C[C@H](N)[C@H]1NC(C)=O | A/Singapore/1/57 |  | 0.0003 µg/mL |
| c1cc(C23CC4CC(CC(C4)C2)C3)[nH]n1 | H7N1 A/Rostock/34 | Chick embryo fibroblasts | 21.57 µg/mL |
| CCCN(CCc1ccc(Cc2ccccc2)cc1)C(=O)[C@@H]1OC(C(=O)O)=C[C@H](N)[C@H]1NC(C)=O | A/Singapore/1/57 |  | <0.0001 µg/mL |
| Nc1nc2c(ncn2[C@@H]2O[C@H](CO)[C@@H](O)[C@H]2F)c(=O)[nH]1 | H2N2 A/Singapore/1/57 | CEF | 0.4 µM |
| CC(=O)N[C@H]1[C@H]([C@H](O)[C@H](O)CO)OC(C(=O)O)=C[C@@H]1N=C(N)N | H7N2 A/turkey/England/192-329/79 | MDCK | 0.08 µM |
| CCCCCCCCCN(CCC)C(=O)[C@@H]1OC(C(=O)O)=C[C@H](N=C(N)N)[C@H]1NC(C)=O | A/Singapore/1/57 |  | 0.002 µg/mL |

A second listing of 3 rows from above:

compound | strain or isolate | cell line | value
CCCCCCCCCN(CCC)C(=O)[C@@H]1OC(C(=O)O)=C[C@H](N=C(N)N)[C@H]1NC(C)=O | A/Singapore/1/57 |  | 0.002 µg/mL
C#C[C@@H](O)C1=C[C@@H](n2cnc3c(N)ncnc32)[C@H](O)[C@@H]1O | H2N2 X31 | MDCK | >50 µg/mL
CCCN(CCc1ccc(Cl)cc1Cl)C(=O)[C@@H]1OC(C(=O)O)=C[C@H](N)[C@H]1NC(C)=O | A/Singapore/1/57 |  | 0.00001 µg/mL